Data on two compounds can be found in patent publication US6906205B2, “Spiro and dispiro 1,2,4-trioxolane antimalarials” (Medicines for Malaria Venture MMV, priority 2002, dated 2005).

A short description of the data set: chemical properties of OZ277 salts. The conditions noted are these: salt of OZ277.

The structures appear in SMILES notation.

In the case of `CC(C)(N)CNC(=O)CC1CCC2(CC1)OOC1(O2)C2CC3CC(C2)CC1C3.Cc1ccc(S(=O)(=O)O)cc1` (centres unmarked) [Tosylate], the Taste entry is reported as “Not bitter”.

As for `CC(C)(N)CNC(=O)CC1CCC2(CC1)OOC1(O2)C2CC3CC(C2)CC1C3.O=C(O)CCC(=O)O` (centres unmarked) [Succinate], the Taste result is reported as “Not bitter”.
